Results of unrelated studies side by side (data: NIAID ChemDB).

Shared fields: whole-cell or culture tests; agent: HIV-1

Rows are shuffled and stem from different studies. An empty or dashed field is not shown. ECn is the concentration giving n% inhibition of infection, replication or growth.

SMILES,setting,method,mutations,endpoint,strain or isolate,cells,result
CCc1cc(NCc2nc3c(Cl)ccc(Cl)c3o2)c(=O)[nH]c1C,,p24,,EC50,IIIB,PBL,<0.05 µM
Nc1ncnc2c1ncn2CCOCP(=O)(O)O,,syncytia,,EC50,HE,CEM,17 µM
CCN1C(=O)N(Cc2cccc(Cl)c2)S(=O)(=O)c2cscc21,,syncytia,,EC50,HE,MT-4,3.1 µM
Nc1nc(Cl)nc2c1ncn2[C@@H]1C=C[C@H](CO)O1,,cytopathic effect / MTT,,EC50,,MT-4,>10 µM
CC(C)=CCOc1cc(NC(=S)c2ccoc2C)ccc1Cl,,p24,,EC50,BaL,MM + M/M,0.08 µg/mL
Cc1ccnc2c1NC(=O)c1cccnc1N2C1CC1,,MTT,Y188L,EC50,IIIB,MT-4,>15 µM
Cc1cn([C@@H]2O[C@H](CO[Si](C)(C)C(C)(C)C)C3(OS(=O)(=O)C=C3N)[C@H]2O[Si](C)(C)C(C)(C)C)c(=O)n(C)c1=O,,syncytia,RT-E138K,EC50,IIIB,CEM,>33.1 µM
C[C@H](Cn1cnc2c(N)ncnc21)OCP(=O)(O)O,,syncytia,,EC50,HE,MOLT4 + MOLT-4,8.5 µM
Nc1ccn([C@@H]2CO[C@H](CO)S2)c(=O)n1,,p24,RT-M184V,EC50,HXB2,C8166,6 µM
CCOC(=O)C1c2cccn2S(=O)(=O)c2ccccc2N1C(C)=O,,cytopathic effect / MTT,,EC50,IIIB,MT-4,>300 µM
Cc1cn([C@H]2C=C[C@@H](CO)O2)c(=O)[nH]c1=O,,cytopathic effect / MTT,,EC50,LAI,MT-2,13.4 µM
CC(C)(C)NC(=O)[C@@H]1C[C@@H]2CCCC[C@@H]2CN1C[C@@H](O)[C@H](Cc1ccccc1)NC(=O)[C@H](CC(N)=O)NC(=O)c1ccc2ccccc2n1,,p24,PR-L63P,EC50,ERS104PRE(PR-L63P) Clinical isolate,PBMC,0.01 µM
CNc1ccc(Cl)cc1S(=O)(=O)c1ccccc1[N+](=O)[O-],,XTT,,EC50,IIIB,AA5,0.06 µM
[NH4+],,antigen,,EC50,IIIB,MT-4,>100 µg/mL
N#Cc1ccc(Nc2nccc(Oc3ccc(C(=O)CC(=O)C(=O)O)cc3)n2)cc1,,MTT,,EC50,RES056,MT-4,>42 µM
Cc1cn([C@H]2C[C@H](F)[C@@H](CO)O2)c(=O)[nH]c1=O,,antigen,RT-V75I F77L F116Y Q151M,EC50,BS NRTI-MDR (RT-V75I F77L F116Y Q151M),PBMC,0.005 µM
CCc1cc(NCc2nc3c(C)ccc(C)c3o2)c(=O)[nH]c1C,,p24,,EC95,MN,MT-4,0.05 µM
c1ccc2c(c1)Cn1cccc1-c1nncn1-2,,cytopathic effect / MTT,,EC50,IIIB,MT-4,>300 µM
O=C1N(Cc2ccccc2)c2cscc2S(=O)(=O)N1Cc1ccccc1,,syncytia,RT-Y188H,EC50,,CEM,7.8 µM
CC(C)CN(C[C@@H](O)[C@H](Cc1ccccc1)NC(=O)O[C@H]1CCOC1)S(=O)(=O)c1ccc(N)cc1,,p24,PR-D30N,EC50,NL4-3,MT-4,<0.02 µM
CC(C)(C)NC(=O)[C@@H]1CN(Cc2cccnc2)CCN1C[C@@H](O)C[C@@H](Cc1ccccc1)C(=O)N[C@H]1c2ccccc2C[C@H]1O,,p24,PR-L10I K14R R41K M46L I54V L63P A71V V82A L90M I93L,EC50,Clinical isolate,PBMC,0.3 µM
Cc1cn([C@H]2C[C@H](N=[N+]=[N-])[C@@H](CO)O2)c(=O)[nH]c1=O,,cytopathic effect / XTT,RT-Q151M,EC50,Site-directed mutant,MT-2,3.4 µM
Nc1nc(Cl)nc2c1ncn2[C@@H]1CC[C@H](CO)O1,,RT activity,,EC50,,CEM + CEM-SS,>10 µM
O=c1[nH]cnc2c1ncn2[C@H]1CC[C@@H](CO)O1,,p24,RT-M184V,EC50,HXB2-D184 (RT-M184V),MT-4,75 µM
CC1CCN(CCCN2c3ccccc3NC(C)c3cccn32)CC1,,cytopathic effect / MTT,,EC50,IIIB,MT-4,>173 µM
CNc1ccccc1S(=O)(=O)c1ccccc1[N+](=O)[O-],,XTT,,EC50,IIIB,CEM + CEM-SS,1 µM
Cc1cn([C@@H]2O[C@H](CO[Si](C)(C)C(C)(C)C)C3(OS(=O)(=O)C=C3N)[C@H]2O)c(=O)[nH]c1=O,,cytopathic effect / trypan blue,,EC50,HE,MT-4,>40 µM
CC(C)(C)NC(=O)[C@@H]1C[C@@H]2CCCC[C@@H]2CN1C[C@@H](O)[C@H](Cc1ccccc1)NC(=O)[C@H](CC(N)=O)NC(=O)c1ccc2ccccc2n1,,RT activity,,EC90,MN,MT-2,0.013 µM
CC(C)CN(C[C@@H](O)[C@H](Cc1ccccc1)NC(=O)[C@H](CC(N)=O)NC(=O)c1ccc2ccccc2n1)C(=O)NC(C)(C)C,,,,EC50,RF,MT-2,0.053 µM
CCOC(=O)C(=O)CC(=O)c1ccc(Oc2ccnc(Nc3ccc(C#N)cc3)n2)cc1,,MTT,Y181C,EC50,IIIB,MT-4,>22 µM
CN1C(=O)N(Cc2ccccc2)S(=O)(=O)c2cscc21,,syncytia,RT-L100I,EC50,,CEM,13 µM
O=C1c2cccn2S(=O)(=O)c2ccccc2N1Cc1ccccc1,,cytopathic effect / MTT,,EC50,IIIB,MT-4,>300 µM
CC[C@H]1C(=O)Nc2ccc(F)cc2N1C(=O)OC(C)C,,cytopathic effect,RT-K101E,EC50,C-1 (RT-K101E),CEM,0.0025 µg/mL
Cc1cn([C@@H]2O[C@H](CO)C3(OS(=O)(=O)C=C3N)[C@H]2O)c(=O)[nH]c1=O,,syncytia,,EC50,IIIB,CEM,>300 µM
Cc1cn([C@H]2C[C@H](N=[N+]=[N-])[C@@H](CO)O2)c(=O)[nH]c1=O,,p24,,EC50,M011190,PBMC,0.04 µM
Cc1cn([C@H]2C[C@H](N=[N+]=[N-])[C@@H](CO)O2)c(=O)[nH]c1=O,,RT activity,,EC50,Group O isolate,PBMC,<0.03 µM
Cc1cn([C@H]2C[C@H](C#N)[C@@H](CO)O2)c(=O)[nH]c1=O,,cytopathic effect,,EC50,IIIB,ATH8,>2.5 µg/mL
CC(C)=CCN1Cc2cccc3[nH]c(=S)n(c23)C[C@@H]1C,,RT activity,,EC90,Subtype B isolate,PBMC,0.44 µM
Cc1cn([C@H]2C[C@H](N=[N+]=[N-])[C@@H](CO)O2)c(=O)[nH]c1=O,,cytopathic effect,RT-V106A,EC50,E-2 (RT-V106A),CEM,0.0053 µM
Cc1cc(C)c(Nc2nc(NC3CCN(Cc4cccnc4)CC3)nc3nc[nH]c23)c(C)c1,,MTT,,EC50,RES056,MT-4,>132 µM
Nc1nc(NC2CC2)c2ncn([C@H]3C=C[C@@H](CO)C3)c2n1,,cytopathic effect / XTT,RT-K103N,EC50,Site-directed mutant,MT-2,1.5 µM
CC(=O)c1ccc(C)cc1NC(C(N)=O)c1c(Cl)cccc1Cl,,cytopathic effect / MTT,,EC50,Recombinant wild type,MT-4,0.023 µM
Cc1cn([C@H]2C[C@H](N=[N+]=[N-])[C@@H](CO)O2)c(=O)[nH]c1=O,,,,EC50,JR-FL,Macrophage,<1 µM
O=c1[nH]cnc2c1ncn2[C@H]1CC[C@@H](CO)O1,,cytopathic effect / MTT,RT-A98S,EC50,Recombinant mutant,MT-4,3.411 µM
Cc1ccnc2c1NC(=O)c1cccnc1N2C1CC1,,p24,RT-V106I Y188C,EC50,RF,C8166,>30 µM
CC(C)=CCOc1cc(NC(=S)c2ccoc2C)ccc1Cl,,cytopathic effect,RT-K103N,EC50,Y-1 (RT-K103N),CEM,0.05 µg/mL
Nc1ncnc2c1ncn2[C@H]1CC[C@@H](CO)O1,,virus yield,,EC50,LAV-1,CEM,<1 µM
N#CCN1C(=O)N(Cc2ccccc2)S(=O)(=O)c2cscc21,,syncytia,RT-K103N,EC50,,CEM,>300 µM
Nc1nc2c(ncn2[C@H]2CO[C@@H](CO)O2)c(=O)[nH]1,,cytopathic effect / XTT,RT-L74V,EC50,Site-directed mutant,MT-2,7.7 µM
CC[C@H](C)[C@H]1NC(=O)[C@@H](NC(=O)[C@@H](CC(C)C)N(C)S(=O)(=O)c2ccc(C)cc2)[C@@H](C)OC(=O)[C@H](Cc2ccc(OC)cc2)N(C)C(=O)[C@@H]2CCCN2C(=O)[C@H](CC(C)C)NC(=O)[C@H](C(C)C)OC(=O)C[C@@H]1O,,,,EC50,NL4-3,PBMC,17.3 µM
Nc1ccn([C@H]2CC[C@@H](CO)O2)c(=O)n1,,cytopathic effect / MTT,RT-A98S E138A,EC50,Recombinant mutant,MT-4,2.512 µM
CCOC(=O)CN1C(=O)c2cccn2S(=O)(=O)c2ccccc21,,cytopathic effect / MTT,,EC50,IIIB,MT-4,23 µM
Cc1cn([C@@H]2O[C@H](CO[Si](C)(C)C(C)(C)C)C3(OS(=O)(=O)C=C3N)[C@H]2O[Si](C)(C)C(C)(C)C)c(=O)n(C)c1=O,,cytopathic effect / trypan blue,,EC50,HE,MT-4,0.051 µM
CCc1c(C(=O)c2cc(C)cc(C)c2)n(CC2CC=CC2)c(=O)[nH]c1=O,clinical isolate,cytopathic effect / XTT,,EC50,CLADE A,PBMC,0.014 µM
CC(C)N1C(=O)c2cccn2S(=O)(=O)c2ccc(Cl)cc21,,cytopathic effect / MTT,,EC50,IIIB,MT-4,>300 µM
O=C(O)P(=O)(O)O,,syncytia,RT-H208Y,EC50,LAI viral clone (RT-H208Y),HT4LACZ-1 + HT4 LacZ-1,67 µM
O=[N+]([O-])c1ccccc1S(=O)c1ccccc1,,cytopathic effect / XTT,,EC50,RF,CEM + CEM-SS,6 µM
CC(C)Nc1cccnc1N1CCN(C(=O)c2cc3cc(NS(C)(=O)=O)ccc3[nH]2)CC1,,RT activity,,EC50,Clinical isolate wild type,PBMC,0.04 µM
Cc1cc(C)c(Nc2nc(NC3CCN(Cc4ccncc4)CC3)nc3nc[nH]c23)c(C)c1,,MTT,,EC50,RES056,MT-4,>141 µM
O=C1c2cccn2S(=O)(=O)c2ccccc2N1C1CC1,,cytopathic effect / MTT,,EC50,IIIB,MT-4,60 µM
COc1ccc(S(=O)(=O)N(CC(C)C)C[C@@H](O)[C@H](Cc2ccccc2)NC(=O)O[C@H]2CO[C@H]3OCC[C@H]32)cc1,,p24,PR-L10R N37D M46I I62V L63P A71V G73S V77I V82T L90M I93L,EC50,Clinical isolate,PBMC,0.001 µM
CCN(CC)C(=O)OCC1CN(C(=O)c2cc(OC)c(OC)c(OC)c2)CCN1C(=O)c1cc(OC)c(OC)c(OC)c1,,RT activity,,EC50,LAI,PBL,5 µM
Cc1c(O)cccc1C(=O)N[C@@H](CSc1ccccc1)[C@H](O)CN1C[C@H]2CCCC[C@H]2C[C@H]1C(=O)NC(C)(C)C,,p24,,EC50,LAI Laboratory isolate,PBMC,0.009 µM
C=S(=C)(N)c1ccc(CN2CCC(Nc3nc(Nc4c(C)cc(C)cc4C)c4[nH]cnc4n3)CC2)cc1,,MTT,,EC50,IIIB,MT-4,4.24 µM
Nc1ncnc2c1ncn2CCOCP(=O)(O)O,,cytopathic effect / XTT,,EC50,LAI,MT-2,14.2 µM
O=S1(=O)c2ccccc2N=Cc2cccn21,,cytopathic effect / MTT,,EC50,IIIB,MT-4,>46 µM
Cc1ccnc2c1NC(=O)c1cccnc1N2C1CC1,,MTT,,EC50,IIIB,MT-4,0.29 µM
CCn1c(=O)c(C)cn([C@@H]2O[C@H](CO[Si](C)(C)C(C)(C)C)C3(OS(=O)(=O)C=C3N)[C@H]2O[Si](C)(C)C(C)(C)C)c1=O,,cytopathic effect / MTT,RT-E138A,EC50,Recombinant mutant,MT-4,2.346 µM
CC[C@H](C)[C@H]1NC(=O)[C@@H](NC(=O)[C@H](CC(C)C)N(C)C(=O)[C@@H]2CCCN2C(=O)C(C)=O)[C@@H](C)OC(=O)[C@H](Cc2ccc(OC)cc2)N(C)C(=O)[C@@H]2CCCN2C(=O)[C@H](CC(C)C)NC(=O)[C@@H](C)C(=O)[C@H](C(C)C)OC(=O)C[C@@H]1O,,luciferase,,EC50,NL4-3,MT-2,0.22 µM
O=[N+]([O-])c1ccccc1S(=O)(=O)c1ccccc1,,,,EC50,MN,CEM + CEM-SS,4.02 µM
O=c1[nH]cnc2c1ncn2[C@H]1CC[C@@H](CO)O1,,syncytia,,EC50,IIIB,CEM,5 ± 1.4 µM
CC[C@H](C)[C@H]1NC(=O)[C@@H](NC(=O)[C@@H](C)N(C)C(=O)OCc2ccccc2)[C@@H](C)OC(=O)[C@H](Cc2ccc(OC)cc2)N(C)C(=O)[C@@H]2CCCN2C(=O)[C@H](CC(C)C)NC(=O)[C@@H](C)C(=O)[C@H](C(C)C)OC(=O)C[C@@H]1O,,luciferase,,EC50,NL4-3,PBMC,7.9 µM
c1cc(CN2CCCNCCNCCCNCC2)ccc1CN1CCCNCCNCCCNCC1,,p24,,EC50,IIIB X4 laboratory isolate,PBMC,0.016 µM
CCOC(=O)C1c2cccn2Sc2ccccc2N1C(=O)CCl,,cytopathic effect / MTT,,EC50,IIIB,MT-4,176 µM
CC(C)Nc1cccnc1N1CCN(C(=O)c2cc3cc(NS(C)(=O)=O)ccc3[nH]2)CC1,,cytopathic effect,,EC50,IIIB,C8166,0.012 µg/mL
Nc1ccccc1S(=O)(=O)c1ccccc1,,cytopathic effect / XTT,,EC50,RF,CEM + CEM-SS,133 µM
CC[C@]1(c2ccccc2)Oc2cccnc2-n2cccc2C1=O,,RT activity,RT-M41L K103N T215Y,EC50,Resistant (MDR) isolate,PBMC,3.4 µM
Cc1occc1C(=S)Nc1ccc(Cl)c(/C=N/OC(C)(C)C)c1,,syncytia,RT-V179D,EC50,IIIB,CEM,0.17 ± 0.09 µM
CC[C@H](C)[C@H]1NC(=O)[C@@H](NC(=O)[C@@H](CC(C)C)N(C)C(=O)c2cc3ccccc3s2)[C@@H](C)OC(=O)[C@H](Cc2ccc(OC)cc2)N(C)C(=O)[C@@H]2CCCN2C(=O)[C@H](CC(C)C)NC(=O)[C@H](C(C)C)OC(=O)C[C@@H]1O,,luciferase,,EC50,JR,PBMC,0.012 µM
CC(C)[C@H](NC(=O)N(C)Cc1ccccn1)C(=O)N[C@@H](Cc1ccccc1)[C@H](O)[C@@H](O)[C@H](Cc1ccccc1)NC(=O)[C@@H](NC(=O)N(C)Cc1ccccn1)C(C)C,,cytopathic effect / MTT,,EC50,IIIB,MT-4,0.17 µM
COCCNC(=O)[C@@H](NC(=O)[C@H](Cc1ccc(OC)c(OC)c1OC)C[C@H](O)[C@H](Cc1ccccc1)NC(=O)OC(C)(C)C)C(C)C,,RT activity,,EC90,LAI,PBL,0.0381 µM
Nc1nc(Cl)nc2c1ncn2[C@@H]1C[C@@H](O)[C@H](CO)O1,,cytopathic effect / MTT,,EC50,,MT-4,>10 µM